These are literature values, as cited in US20240115717A1 (priority 2020, published 2024).

The subject of this series is U251MG, D54MG and U87MG glioma cell lines. The settings on record: read-out: IC50 on invasion and migration; cited from earlier work.

As to Chlorotoxin [SEQ ID NO: 1], the IC50 was roughly 600 nM.
